Data source: PubChem BioAssay AID1224833 (University of Georgia, 2016)
Aim: 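Human genes whose knock-down alters rotavirus replication in monkey cells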 (primary screen). Cells: monkey MA104 kidney cells. Reagents: siRNA pool against human genes, 50 nM. Time to read-out: 48 h knock-down before infection; read 24 h after infection. Treatment: infection with rotavirus strain RV3 two days after transfection; infectious dose for this stage not given. Measurement: 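z-score of rotavirus antigen signal per well, from a fluorescent immunoassay, relative to non-targeting control wells on the same plate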. Reading the numbers: z-score vs non-targeting control: higher = more rotavirus replication than with non-targeting control. Active means: In these data the active calls have z-score vs non-targeting control at about -1 or lower, or at about 1 or higher. Calls: active = z-score beyond 1 either way; inactive = z-score within 1 of zero.
This is an unselected part of about 12,000 reagents tested. About 5,600 of all reagents (46%) count as active. 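Active calls cover z-scores past 1 in both directions, so they include lowered as well as raised rotavirus replication.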 A number with no mark means an inactive call. Reagent sequences are not shown.

Target gene | z-score vs non-targeting control
ZNF121 | -1.7 (active)
TTC38 | -1.1 (active)
L1TD1 | 1.35 (active)
NXPE3 | -1.24 (active)
REG1A | -0.914
DIRC1 | 1.15 (active)
GPS2 | -0.651
CALML4 | 1.03 (active)
DDA1 | 0.434
ACTMAP | -0.485
TCEAL7 | 0.519
MYOCD | 1.74 (active)
PIGS | -0.341
SEMA5A | 0.568
MORC4 | 1.96 (active)
PRDM14 | 0.94
ASTL | -1.42 (active)
ATG16L1 | -1.37 (active)
GCSH | 1.69 (active)
KLHL12 | -1.31 (active)
CUBN | -0.712
TLR9 | 1.12 (active)
EOGT | 1.05 (active)
PAM | 1.94 (active)
TMEM171 | -0.195
NATD1 | -1.36 (active)
PIERCE1 | 0.56
KLHL23 | -0.697
GABARAPL1 | -1.36 (active)
C12orf42 | 0.892
APOLD1 | 0.622
CYP4V2 | 1.07 (active)
UGT2B15 | -3.34 (active)
GC | -2.06 (active)
SLC22A9 | -2.26 (active)
RAB29 | -1.23 (active)
CCDC159 | 2.02 (active)
NEIL1 | 0.844
EPAS1 | -1.02 (active)
ALAD | 1.4 (active)
PRG3 | -1.74 (active)
OR51B6 | -0.284
CELSR2 | -0.654
CCNT2 | -1.48 (active)
EDN1 | -1.87 (active)
CPOX | -1.26 (active)
MUC1 | 0.283
SCAMP4 | 0.143
DSC2 | -0.353

An excerpt from the list above, for reference:
Target gene | z-score vs non-targeting control
TCEAL7 | 0.519
MYOCD | 1.74 (active)
PIGS | -0.341
SEMA5A | 0.568
MORC4 | 1.96 (active)
PRDM14 | 0.94
ASTL | -1.42 (active)
ATG16L1 | -1.37 (active)
GCSH | 1.69 (active)
KLHL12 | -1.31 (active)

The list goes on:
Target gene | z-score vs non-targeting control
DCBLD1 | 0.205
MMP2 | 0.906
CABP7 | -2.07 (active)
COPB1 | 0.0947
CD19 | -0.606
SGCA | 0.59
PIGU | 1.29 (active)
USP3 | -0.957
TMEM156 | -1.17 (active)
FN1 | -1.62 (active)
ERLIN2 | 0.72
PMF1 | 0.616
L3MBTL4 | 0.14
CNIH3 | -0.488
CERS1 | -0.444
CDC50A | -1.21 (active)
SERPINF1 | 1.29 (active)
FMC1 | -0.889
GLMN | -0.191
IL17RC | 0.353
IFI27L1 | -1.29 (active)
CFL2 | -2.29 (active)
ZSWIM4 | -1.17 (active)
BMP4 | 0.541
CAPN15 | 0.687
TCEAL8 | 1.15 (active)
HS6ST3 | -0.994
AKIRIN1 | 1.45 (active)
MS4A4A | -0.794
GUCA1B | -1.33 (active)
ANKRD13B | -1.37 (active)
SUSD6 | 0.932
CREB3 | 2.24 (active)
ASH2L | -1.61 (active)
MYH13 | -1.16 (active)
WDR11 | 1.34 (active)
BTNL8 | -1.71 (active)
KRTAP4-2 | 1.52 (active)
CYP11A1 | -1.87 (active)
OTOR | 1.25 (active)
BAX | -0.838
DECR1 | -1.59 (active)
TMEM87B | -1.32 (active)
OR51V1 | 0.606
FAM9C | -0.893
SNX4 | -1.61 (active)
GBGT1 | -0.698
YIF1A | 0.3
OLA1 | -0.335
PDE10A | -0.565
C6orf136 | -0.181
CCNY | 1.7 (active)
CD27 | 1.49 (active)
RBM26 | -1.65 (active)
NTM | 0.141
BCAM | 0.673
ZNF471 | 0.293
S100Z | -1.35 (active)
ZNF135 | -0.796
ZNF660 | 0.865
OR4K15 | 0.638
DNAJB3P | -1.21 (active)
ZNF747 | -1.81 (active)
CCL13 | 1.42 (active)
APOL5 | 0.821
ZCCHC12 | -1.59 (active)
GGH | 0.572
LRFN3 | -0.725
LPAR4 | -0.898
TYR | -2.55 (active)
MCM3 | 2.1 (active)
LMAN1 | -0.662
KLHL40 | -1.54 (active)
GATM | -1.17 (active)
DUS4L | -1.44 (active)
FDXR | -0.737
TPT1 | -1.89 (active)
ACOT4 | -0.222
CWF19L1 | 0.168
STXBP5 | 1.11 (active)
LRIG3 | -0.755
STX10 | -0.656
OR4C12 | -1.5 (active)
EDDM3B | -0.333
DLAT | 0.685
SRPRB | 1.08 (active)
RIBC1 | -3.09 (active)
HORMAD1 | 0.0737
SLC39A6 | -1.33 (active)
ITPRID2 | -2.12 (active)
CST4 | -1.16 (active)
